Results taken from patent publication US20240109955A1 (published 2024).

B1: MX1086 (antibody)
chain 1: EIVMTQSPAILSVSPGERATLSCRASQSVAINLAWYQQKPGQAPRLLIYAASSRATGIPGRFSGSGSETNFTLTISSLQSGDFAVYYCQQYITWPPSYTFGQGTKLEIKGGSSGDTVMTQSPLSLPVTPGEPASISCRSSQSLLNSNGYNYLDWYVQKPGQSPQLLIYLGSNRASGVPDRFSGSGSGTDFTLKISRVEAEDVGVYYCMQPLQTPLFTFGPGTKVEIKGGGGSGGSGSGGGGSASGSGQVTLRESGPALVKPTQTLTLTCTFSGFSLSTRGVCVSWIRQPPGKALEWLAFIDWDDDKYYNTSLKTRLTISKDTSKNQVVLTMTNVHPVDTATYYCARISSHHGSSWCTTFDYWGQGALVTVSAGGSSGEVQLVESGGALIQPGGSLRLSCAASGIIVSANYMSWVRQAPGKGLEWVSVIYSGGSTFYADSVKGRFTISRDNSKNTLYLEMNSLRAEDTAVYYCARDAPILGVSDWGQGTLVTVSSASGGSGDKTHTCPPCPAPELLGGPSVFLFPPKPKDTLMISRTPEVTCVVVDVSHEDPEVKFNWYVDGVEVHNAKTKPREEQYNSYVVSVLTVLHQDWLNGKEYKCKVSNKALPAPIEKTISKAKGQPREPQVCTLPPSRDELTKNQVSLSCAVKGFYPSDIAVEWESNGQPENNYKTTPPVLDSDGSFFLVSKLTVDKSRWQQGNVFSCSVLHEALHSHYTQKSLSLSPG
chain 2: QTVVTQEPSFSVSPGGTVTLTCGLSSGSVSTAYFPSWYQQTPGQAPRTLIYGTNTRSSGVPDRFSGSILGNKAALTITGAQADDESDYYCVLYMGRGIVVFGGGTKLTVLGGSSGEIVLTQSPGTLSLSPGETATLSCRASQSFSSDLAWYQQKPGQAPRLLIYGASSRATGIPDRFSGSGSGTDFTLTISRLEPADFAVYYCQQYGSSPPVTFGGGTKVEIKGGGGSGGSGSGGGGSASGSGEVQLVESGGGLIQPGGSLRLSCAASGVIVSYNYMNWVRQAPGKGLEWVSVIYSGGSTFYADSVRGRFTISRDNSKNTLYLQMNSLRAEDTAVYYCARDLGPAGAFDIWGLGTMVTVSSGGSSGQVQLVESGGGVVQPGRSLRLSCAASGFTLSSYGMHWVRQAPGKGLEWVAVISYDGSNKYYVDSVKGRFTISRDNSKNTLYLQMNSLRAEDTAVYYCRWAYWELLPDYYYGMDVWGQGTTVTVSSASGGSGDKTHTCPPCPAPELLGGPSVFLFPPKPKDTLMISRTPEVTCVVVDVSHEDPEVKFNWYVDGVEVHNAKTKPREEQYNSYVVSVLTVLHQDWLNGKEYKCKVSNKALPAPIEKTISKAKGQPREPQVYTLPPCRDELTKNQVSLWCLVKGFYPSDIAVEWESNGQPENNYKTTPPVLDSDGSFFKKLTVDKSRWQQGNVFSCSVLHEALHSHYTQKSLSLSPG
B2: MX1087 (antibody)
chain 1: QTVVTQEPSFSVSPGGTVTLTCGLSSGSVSTAYFPSWYQQTPGQAPRTLIYGTNTRSSGVPDRFSGSILGNKAALTITGAQADDESDYYCVLYMGRGIVVFGGGTKLTVLGGSSGEIVMTQSPAILSVSPGERATLSCRASQSVAINLAWYQQKPGQAPRLLIYAASSRATGIPGRFSGSGSETNFTLTISSLQSGDFAVYYCQQYITWPPSYTFGQGTKLEIKGGGGSGGSGSGGGGSASGSGEVQLVESGGALIQPGGSLRLSCAASGIIVSANYMSWVRQAPGKGLEWVSVIYSGGSTFYADSVKGRFTISRDNSKNTLYLEMNSLRAEDTAVYYCARDAPILGVSDWGQGTLVTVSSGGSSGQVQLVESGGGVVQPGRSLRLSCAASGFTLSSYGMHWVRQAPGKGLEWVAVISYDGSNKYYVDSVKGRFTISRDNSKNTLYLQMNSLRAEDTAVYYCRWAYWELLPDYYYGMDVWGQGTTVTVSSASGGSGDKTHTCPPCPAPELLGGPSVFLFPPKPKDTLMISRTPEVTCVVVDVSHEDPEVKFNWYVDGVEVHNAKTKPREEQYNSYVVSVLTVLHQDWLNGKEYKCKVSNKALPAPIEKTISKAKGQPREPQVYTLPPCRDELTKNQVSLWCLVKGFYPSDIAVEWESNGQPENNYKTTPPVLDSDGSFFKKLTVDKSRWQQGNVFSCSVLHEALHSHYTQKSLSLSPG
chain 2: EIVLTQSPGTLSLSPGETATLSCRASQSFSSDLAWYQQKPGQAPRLLIYGASSRATGIPDRFSGSGSGTDFTLTISRLEPADFAVYYCQQYGSSPPVTFGGGTKVEIKGGSSGDTVMTQSPLSLPVTPGEPASISCRSSQSLLNSNGYNYLDWYVQKPGQSPQLLIYLGSNRASGVPDRFSGSGSGTDFTLKISRVEAEDVGVYYCMQPLQTPLFTFGPGTKVEIKGGGGSGGSGSGGGGSASGSGQVTLRESGPALVKPTQTLTLTCTFSGFSLSTRGVCVSWIRQPPGKALEWLAFIDWDDDKYYNTSLKTRLTISKDTSKNQVVLTMTNVHPVDTATYYCARISSHHGSSWCTTFDYWGQGALVTVSAGGSSGEVQLVESGGGLIQPGGSLRLSCAASGVIVSYNYMNWVRQAPGKGLEWVSVIYSGGSTFYADSVRGRFTISRDNSKNTLYLQMNSLRAEDTAVYYCARDLGPAGAFDIWGLGTMVTVSSASGGSGDKTHTCPPCPAPELLGGPSVFLFPPKPKDTLMISRTPEVTCVVVDVSHEDPEVKFNWYVDGVEVHNAKTKPREEQYNSYVVSVLTVLHQDWLNGKEYKCKVSNKALPAPIEKTISKAKGQPREPQVCTLPPSRDELTKNQVSLSCAVKGFYPSDIAVEWESNGQPENNYKTTPPVLDSDGSFFLVSKLTVDKSRWQQGNVFSCSVLHEALHSHYTQKSLSLSPG
B3: MX1089 (antibody)
chain 1: QTVVTQEPSFSVSPGGTVTLTCGLSSGSVSTAYFPSWYQQTPGQAPRTLIYGTNTRSSGVPDRFSGSILGNKAALTITGAQADDESDYYCVLYMGRGIVVFGGGTKLTVLGGSSGEIVMTQSPAILSVSPGERATLSCRASQSVAINLAWYQQKPGQAPRLLIYAASSRATGIPGRFSGSGSETNFTLTISSLQSGDFAVYYCQQYITWPPSYTFGQGTKLEIKGGGGSGGSGSGGGGSASGSGEVQLVESGGALIQPGGSLRLSCAASGIIVSANYMSWVRQAPGKGLEWVSVIYSGGSTFYADSVKGRFTISRDNSKNTLYLEMNSLRAEDTAVYYCARDAPILGVSDWGQGTLVTVSSGGSSGQVQLVESGGGVVQPGRSLRLSCAASGFTLSSYGMHWVRQAPGKGLEWVAVISYDGSNKYYVDSVKGRFTISRDNSKNTLYLQMNSLRAEDTAVYYCRWAYWELLPDYYYGMDVWGQGTTVTVSSASGGSGDKTHTCPPCPAPELLGGPSVFLFPPKPKDTLMISRTPEVTCVVVDVSHEDPEVKFNWYVDGVEVHNAKTKPREEQYNSYVVSVLTVLHQDWLNGKEYKCKVSNKALPAPIEKTISKAKGQPREPQVYTLPPCRDELTKNQVSLWCLVKGFYPSDIAVEWESNGQPENNYKTTPPVLDSDGSFFKKLTVDKSRWQQGNVFSCSVLHEALHSHYTQKSLSLSPG
chain 2: DTVMTQSPLSLPVTPGEPASISCRSSQSLLNSNGYNYLDWYVQKPGQSPQLLIYLGSNRASGVPDRFSGSGSGTDFTLKISRVEAEDVGVYYCMQPLQTPLFTFGPGTKVEIKGGSSGEIVLTQSPGTLSLSPGERATLSCRASQSVSSSYLAWYQQKPGQAPRLLIYSASSRATGIPDRFSGSGSGTDFTLTISRLEPEDFAVYFCQQYVGLTGWTFGQGTKVEIKGGGGSGGSGSGGGGSASGSGQMQLVQSGPEVKKPGTSVKVSCKASGFTFTSSAVQWVRQRQRLEWIGWIVVGSGNTNYAQKFQERVTITRDMSTSTAYMELSSLRSEDTAVYYCAAPNCSNVVCYDGFDIWGQGTMVTVSSGGSSGQVTLRESGPALVKPTQTLTLTCTFSGFSLSTRGVCVSWIRQPPGKALEWLAFIDWDDDKYYNTSLKTRLTISKDTSKNQVVLTMTNVHPVDTATYYCARISSHHGSSWCTTFDYWGQGALVTVSAASGGSGDKTHTCPPCPAPELLGGPSVFLFPPKPKDTLMISRTPEVTCVVVDVSHEDPEVKFNWYVDGVEVHNAKTKPREEQYNSYVVSVLTVLHQDWLNGKEYKCKVSNKALPAPIEKTISKAKGQPREPQVCTLPPSRDELTKNQVSLSCAVKGFYPSDIAVEWESNGQPENNYKTTPPVLDSDGSFFLVSKLTVDKSRWQQGNVFSCSVLHEALHSHYTQKSLSLSPG
B4: MX1018 (antibody)
chain: EIVMTQSPAILSVSPGERATLSCRASQSVAINLAWYQQKPGQAPRLLIYAASSRATGIPGRFSGSGSETNFTLTISSLQSGDFAVYYCQQYITWPPSYTFGQGTKLEIKGGSSGEIVMTQSPAILSVSPGERATLSCRASQSVAINLAWYQQKPGQAPRLLIYAASSRATGIPGRFSGSGSETNFTLTISSLQSGDFAVYYCQQYITWPPSYTFGQGTKLEIKGGGGSGGSGSGGGGSASGSGEVQLVESGGALIQPGGSLRLSCAASGIIVSANYMSWVRQAPGKGLEWVSVIYSGGSTFYADSVKGRFTISRDNSKNTLYLEMNSLRAEDTAVYYCARDAPILGVSDWGQGTLVTVSSGGSSGEVQLVESGGALIQPGGSLRLSCAASGIIVSANYMSWVRQAPGKGLEWVSVIYSGGSTFYADSVKGRFTISRDNSKNTLYLEMNSLRAEDTAVYYCARDAPILGVSDWGQGTLVTVSSASGGSGDKTHTCPPCPAPELLGGPSVFLFPPKPKDTLMISRTPEVTCVVVDVSHEDPEVKFNWYVDGVEVHNAKTKPREEQYNSYVVSVLTVLHQDWLNGKEYKCKVSNKALPAPIEKTISKAKGQPREPQVYTLPPSRDELTKNQVSLTCLVKGFYPSDIAVEWESNGQPENNYKTTPPVLDSDGSFFKKLTVDKSRWQQGNVFSCSVLHEALHSHYTQKSLSLSPG
B5: MX1029 (antibody)
chain: EIVLTQSPGTLSLSPGETATLSCRASQSFSSDLAWYQQKPGQAPRLLIYGASSRATGIPDRFSGSGSGTDFTLTISRLEPADFAVYYCQQYGSSPPVTFGGGTKVEIKGGSSGEIVLTQSPGTLSLSPGETATLSCRASQSFSSDLAWYQQKPGQAPRLLIYGASSRATGIPDRFSGSGSGTDFTLTISRLEPADFAVYYCQQYGSSPPVTFGGGTKVEIKGGGGSGGSGSGGGGSASGSGEVQLVESGGGLIQPGGSLRLSCAASGVIVSYNYMNWVRQAPGKGLEWVSVIYSGGSTFYADSVRGRFTISRDNSKNTLYLQMNSLRAEDTAVYYCARDLGPAGAFDIWGLGTMVTVSSGGSSGEVQLVESGGGLIQPGGSLRLSCAASGVIVSYNYMNWVRQAPGKGLEWVSVIYSGGSTFYADSVRGRFTISRDNSKNTLYLQMNSLRAEDTAVYYCARDLGPAGAFDIWGLGTMVTVSSASGGSGDKTHTCPPCPAPELLGGPSVFLFPPKPKDTLMISRTPEVTCVVVDVSHEDPEVKFNWYVDGVEVHNAKTKPREEQYNSYVVSVLTVLHQDWLNGKEYKCKVSNKALPAPIEKTISKAKGQPREPQVYTLPPSRDELTKNQVSLTCLVKGFYPSDIAVEWESNGQPENNYKTTPPVLDSDGSFFKKLTVDKSRWQQGNVFSCSVLHEALHSHYTQKSLSLSPG

Key:
Assay in all cases: cell-based or functional assay
[1] = target: SARS-CoV-2 spike protein, Omicron variant B.1.1.529 (SARS-CoV-2)
[2] = target: SARS-CoV-2 spike protein, Delta variant (SARS-CoV-2)
[3] = target: SARS-CoV-2 Omicron variant B.1.1.529 spike protein (SARS-CoV-2, UniProt P0DTC2 14-1273)

Binder | IC50, pseudovirus neutralization [1] [ng/mL] | IC80, pseudovirus neutralization [1] [ng/mL] | IC50, pseudovirus neutralization [2] [ng/mL] | IC80, pseudovirus neutralization [2] [ng/mL] | IC50, pseudovirus neutralization [3] [ng/mL] | IC80, pseudovirus neutralization [3] [ng/mL]
B1 | 2.91 | 7.73 | 39.8 | 46.5 | – | –
B2 | 1.82 | 5.24 | 17.6 | 32 | – | –
B3 | 2.71 | 8.34 | 78.4 | 123 | – | –
B4 | – | – | – | – | 4.33 | 11.9
B5 | – | – | – | – | 3.79 | 6.78
